Pooled drug test results. Numbers come from NIAID ChemDB, via PubChem.

Common to all: enzyme or target tests; species: HIV-1; target: Reverse transcriptase; read-out: IC50

ICn is the concentration giving n% inhibition. An empty or dashed field is not shown. Rows are shuffled and stem from different studies. a–b is a range or a potency band.

compound | strain or isolate | changes | method | value
COc1c(/C=C/C(=O)c2ccc(-c3ccccc3)cc2)ccc2ccccc12 | - | - | RT activity / nucleotide incorporation | 4 µM
Nc1ncnc2c1ccn2[C@H]1C[C@H](F)[C@@H](COP(=O)(O)OP(=O)(O)OP(=O)(O)O)O1 | - | - | RT activity | 0.43 µM
CCc1ccc(-n2c(Br)nnc2SCC(=O)Nc2ccc(S(N)(=O)=O)cc2Cl)c2c1CCCC2 | - | RT-Y188L | nucleotide incorporation / radiometric | 0.05–0.1 µM
Cc1cc(C(=O)Nc2ccc(S(=O)(=O)O)c3cc(S(=O)(=O)O)cc(S(=O)(=O)O)c23)ccc1NC(=O)Nc1ccc(C(=O)Nc2ccc(S(=O)(=O)O)c3cc(S(=O)(=O)O)cc(S(=O)(=O)O)c23)cc1C | IIIB | - | nucleotide incorporation | 48 µg/mL
O=C(NCCc1ccccc1)Nc1nc(-c2ccc(Cl)cc2)cs1 | - | - | nucleotide incorporation | >10 µg/mL
COC(=O)CCCC=C(c1cc(C)c(OC)c(C(=O)OC)c1)c1cc(C)c(OC)c(C(=O)OC)c1 | - | - | nucleotide incorporation / radiometric | <1 µM
CC(C)(O/N=C(/C(=O)NCC=O)c1csc(N)n1)C(=O)O | - | - | radiometric | >100 µg/mL
COc1ccc2c(c1)CCN(c1nn3c(C4CC4)nnc3c3ccccc13)C2 | IIIB | - | RT activity / fluorescence | 1.07 µM
O=C(Nc1cc(C(=O)Nc2ccc(S(=O)(=O)O)cc2)cc(C(=O)Nc2ccc(S(=O)(=O)O)cc2)c1)Nc1cc(C(=O)Nc2ccc(S(=O)(=O)O)cc2)cc(C(=O)Nc2ccc(S(=O)(=O)O)cc2)c1 | IIIB | - | nucleotide incorporation | 12 µg/mL
CCN1c2ncccc2C(=O)N(C)c2ccc(-c3c[nH]c(C(=O)O)c3)nc21 | - | RT-Y188L | nucleotide incorporation / radiometric | >1 µM
Cc1cc(C)c(C(=O)Nc2ccc(S(=O)(=O)O)c3cc(S(=O)(=O)O)cc(S(=O)(=O)O)c23)c(C)c1NC(=O)c1cccc(NC(=O)Nc2cccc(C(=O)Nc3c(C)cc(C)c(C(=O)Nc4ccc(S(=O)(=O)O)c5cc(S(=O)(=O)O)cc(S(=O)(=O)O)c45)c3C)c2)c1 | IIIB | - | nucleotide incorporation | 42 µg/mL
CCOC(=O)C(C)NS(=O)(=O)c1ccc(NC(=O)CSc2nnc(C(F)F)n2-c2ccc(C)c3c2CCCC3)c(Cl)c1 | - | RT-Y188L | nucleotide incorporation / radiometric | >0.1 µM
O=C1C[C@@H](c2ccc(O)cc2)Oc2cc(O)c(-c3c(O)cc4c(c3O)C(=O)C[C@@H](c3ccc(O)cc3)O4)c(O)c21 | - | - | RT activity | >368 µM
Cc1cn(C2OC(CO[Si](C)(C)C(C)(C)C)C3(OS(=O)(=O)C=C3N)C2O[Si](C)(C)C(C)(C)C)c(=O)n(/C=C/CO)c1=O | - | - | nucleotide incorporation | 0.5 µM
O=C(NCCc1ccccc1)Nc1ccccc1Cl | - | - | nucleotide incorporation | <10 µg/mL
O=C(N/N=C/c1cc(O)c(O)c(O)c1)c1ccccc1O | - | - | RNase H / fluorescence | 13.99 µM
CC(=O)COc1cc2c(c(O)c1Br)C(=O)C1C(O)=CC(C)=CC1C2=O | - | - | nucleotide incorporation | 22 µM
CCc1ccc(-n2c(Br)nnc2SCC(=O)Nc2ccc(S(N)(=O)=O)cc2Cl)c2ccccc12 | - | RT-Y181C | nucleotide incorporation / radiometric | <0.05 µM
O=C(NCCc1ccccc1)Nc1nc(-c2ccc(Br)cc2)cs1 | - | - | nucleotide incorporation | >10 µg/mL
COP(=O)(c1cc(C)cc(CCC#N)c1)c1c(C(N)=O)[nH]c2ccc(Cl)c(F)c12 | - | - | RT activity | 0.336 µM
CCNC(=O)c1ccc(NC(=O)CSc2nnc(Br)n2-c2ccc(CC)c3ccccc23)c(Cl)c1 | - | RT-Y181C | nucleotide incorporation / radiometric | <0.05 µM
CCN1c2ncccc2C(=O)N(C)c2ccc(-c3c[nH]c(C(C)=O)c3)nc21 | - | RT-Y181C | nucleotide incorporation / radiometric | <1 µM
NS(=O)(=O)c1ccc(NC(=O)CSc2nnc(Br)n2-c2ccc(C3CC3)cc2Cl)c(Cl)c1 | - | RT-Y181C | nucleotide incorporation / radiometric | <0.05 µM
CCOc1ccc2nc(NC(=O)NCCc3ccccc3)sc2c1 | - | - | nucleotide incorporation | >10 µg/mL
Nc1cnc2c(c1)CN(c1nn3c(C4CC4)nnc3c3ccccc13)CC2 | IIIB | - | RT activity / fluorescence | >100 µM
O=C(NCCc1ccccc1)Nc1nc2ccccc2s1 | - | - | nucleotide incorporation | >10 µg/mL
CCc1ccc(-n2c(Br)nnc2SCC(=O)Nc2ccc(C(=O)NCC3CCNCC3)cc2Cl)c2ccccc12 | - | RT-Y181C | nucleotide incorporation / radiometric | >0.1 µM
COc1c(/C=C/C(=O)c2ccc(Br)cc2)ccc2ccccc12 | - | - | RT activity / nucleotide incorporation | 6 µM
Cc1ccc(C(=O)Nc2cc(S(=O)(=O)O)ccc2S(=O)(=O)O)cc1NC(=O)c1cccc(NC(=O)Nc2cccc(C(=O)Nc3cc(C(=O)Nc4cc(S(=O)(=O)O)ccc4S(=O)(=O)O)ccc3C)c2)c1 | IIIB | - | nucleotide incorporation | 41 µg/mL
CC(C)=CCN1Cc2cccc3[nH]c(=S)n(c23)C[C@@H]1C | - | - | nucleotide incorporation | 0.126 µM
O=C(NCCc1ccccc1)Nc1nncs1 | - | - | nucleotide incorporation | >10 µg/mL
CCCCCCCCCCCCCCCC/C=C\CCC#CCCC(=O)O[C@H](C)C[C@H](CCC[C@@](C)(O)CC(=O)NCCS(=O)(=O)O)CC(C)=O | - | - | - | 6.5 µM
C[Si](C)(CCCSc1ncccn1)O[Si](C)(C)CCCSc1ncccn1 | - | - | - | >2000 µM
CC1(C)C[C@H](O)[C@H](O)[C@]23C(=O)O[C@H](O)[C@H]2C(C=O)=CC[C@@H]13 | - | - | nucleotide incorporation | 140 µM
O=C(NCCc1ccccc1)Nc1ncccn1 | - | - | nucleotide incorporation | >10 µg/mL
CNS(=O)(=O)c1ccc(NC(=O)CSc2nnc(C(F)F)n2-c2ccc(C)c3c2CCCC3)c(Cl)c1 | - | RT-Y188L | nucleotide incorporation / radiometric | >0.1 µM
Cc1cn(C2OC(CO[Si](C)(C)C(C)(C)C)C3(OS(=O)(=O)C=C3N)C2O[Si](C)(C)C(C)(C)C)c(=O)n(CCCNC(=O)c2ccc(N=[N+]=[N-])cc2O)c1=O | - | - | nucleotide incorporation | 0.4 µM
CCN1c2ncccc2C(=O)N(C)c2ccc(-c3cnn(C(C)=O)c3)nc21 | WT | - | nucleotide incorporation / radiometric | <1 µM
NS(=O)(=O)c1ccc(NC(=O)CSc2nnc(Br)n2-c2ccc(C3CCC3)c3ccccc23)c(Cl)c1 | - | RT-Y188L | nucleotide incorporation / radiometric | <0.05 µM
Cc1cc(C)c(S(=O)(=O)OCC2OC3OC4C(CO)OC(OC5C(CO)OC(OC6C(CO)OC(OC7C(CO)OC(OC8C(CO)OC(OC9C(C[n+]%10ccccc%10)OC(OC2C(O)C3O)C(O)C9O)C(O)C8O)C(O)C7O)C(O)C6O)C(O)C5O)C(O)C4O)c(C)c1 | LAV | - | RT activity | >1000 µg/mL
CNS(=O)(=O)c1ccc(NC(=O)CSc2nnc(C(F)F)n2-c2ccc(C)c3ccccc23)c(Cl)c1 | - | RT-Y181C | nucleotide incorporation / radiometric | <0.05 µM
O=C(Nc1cccc(C(=O)Nc2ccc(S(=O)(=O)O)c3cc(S(=O)(=O)O)cc(S(=O)(=O)O)c23)c1)Nc1cccc(C(=O)Nc2ccc(S(=O)(=O)O)c3cc(S(=O)(=O)O)cc(S(=O)(=O)O)c23)c1 | IIIB | - | nucleotide incorporation | 90 µg/mL
Cc1cn(C2OC(CO[Si](C)(C)C(C)(C)C)C3(OS(=O)(=O)C=C3N)C2O[Si](C)(C)C(C)(C)C)c(=O)n(CC(=O)N(CCCl)CCCl)c1=O | - | - | nucleotide incorporation | 8.2 µM
COc1c(/C=C/C(=O)c2ccc(F)cc2)ccc2ccccc12 | - | - | RT activity / nucleotide incorporation | 5 µM
O=C(NCCc1ccccc1)Nc1ccccc1 | - | - | nucleotide incorporation | >10 µg/mL
Cc1cn(CCC[Si](C)(O)c2ccccc2)c(=O)[nH]c1=O | - | - | - | >2000 µM
N#Cc1cc(Cl)cc(Oc2c(Cl)ccc(Cc3nn(COC(=O)CCC(=O)O)c4nnccc34)c2F)c1 | - | - | nucleotide incorporation / radiometric | 0.0074 µM
CCN1c2ncccc2C(=O)N(C)c2ccc(-c3ccc[nH]3)nc21 | WT | - | nucleotide incorporation / radiometric | <1 µM
CCc1ccc(-n2c(Br)nnc2SCC(=O)Nc2ccc(C(=O)NCC(C)(C)N)cc2Cl)c2ccccc12 | - | - | nucleotide incorporation / radiometric | <0.05 µM
N#Cc1ccc2c(c1)CN(c1nn3c(C4CC4)nnc3c3ccccc13)CC2 | IIIB | - | RT activity / fluorescence | 1.69 µM
C[Si](C)(CCCSc1nc2cc(Cl)ccc2s1)O[Si](C)(C)CCCSc1nc2cc(Cl)ccc2s1 | - | - | - | 1000 µM
NS(=O)(=O)c1ccc(NC(=O)CSc2nnc(Br)n2-c2ccc(F)c3ccccc23)c(Cl)c1 | - | - | nucleotide incorporation / radiometric | <0.05 µM
CCN1c2ncccc2C(=O)N(C)c2ccc(-c3cccn3C(C)=O)nc21 | - | RT-Y188L | nucleotide incorporation / radiometric | >1 µM
CCc1ccc(-n2c(Br)nnc2SCC(=O)Nc2ccc(C(=O)O)cc2Cl)c2ccccc12 | - | RT-Y188L | nucleotide incorporation / radiometric | >0.1 µM
CCN1c2ncccc2C(=O)N(C)c2ccc(-c3cc[nH]c3C#N)nc21 | - | RT-Y181C | nucleotide incorporation / radiometric | <1 µM
Cc1cc(S(N)(=O)=O)ccc1NC(=O)CSc1nnc(C)n1-c1ccc(C)c2c1CCCC2 | - | RT-Y188L | nucleotide incorporation / radiometric | >0.1 µM
CC(=O)Nc1cc2c(cc1OC(F)(F)F)CCN(c1nn3c(C)nnc3c3ccccc13)C2 | 98US_MSC5016 | - | RT activity / fluorescence | 0.65 µM
Cc1cc(C2CC2)c2ccccc2c1-n1c(Br)nnc1SCC(=O)Nc1ccc(S(=O)(=O)O)cc1Cl | - | - | nucleotide incorporation / radiometric | <0.05 µM
COC(=O)c1cc2cc(CCc3cc4c(o3)C(=O)c3c(O)c(OC)cc(OC)c3C4=O)c(O)c(O)c2c(=O)o1 | - | - | - | 116 µM
NS(=O)(=O)c1ccc(NC(=O)CSc2nnc(Br)n2-c2ccc(C3CC3)c3ccccc23)c(Cl)c1 | - | RT-Y181C | nucleotide incorporation / radiometric | <0.05 µM
C[Si](C)(CCCn1ccc2ccccc21)O[Si](C)(C)CCCn1ccc2ccccc21 | - | - | - | >2000 µM
CCOC(=O)N1CCC(NC(=O)c2ccc(NC(=O)CSc3nnc(Br)n3-c3ccc(CC)c4ccccc34)c(Cl)c2)CC1 | - | RT-Y188L | nucleotide incorporation / radiometric | >0.1 µM
COc1ccc(OC)c2c(=O)c(O)c[nH]c12 | - | - | nucleotide incorporation | >100 µM
O=C(O)CNC(=O)c1ccc(NC(=O)CSc2nnc(Br)n2-c2ccc(C3CC3)c3ccccc23)c(Cl)c1 | - | - | nucleotide incorporation / radiometric | <0.05 µM
O=C(OC1[C@H](OC(=O)c2cc(O)c(O)c(O)c2)CC(OC(=O)c2cc(O)c(O)c(O)c2)(C(=O)O)C[C@H]1OC(=O)c1cc(O)c(O)c(O)c1)c1cc(O)c(O)c(O)c1 | RF | - | - | 0.8 µM
O=C(CSc1nnc(Br)n1-c1cccc2c(OCC3CC3)cccc12)Nc1ccc(C(=O)O)cc1Cl | - | - | nucleotide incorporation / radiometric | >0.1 µM
C[Si](C)(CCCNC(=O)c1ccccc1N)O[Si](C)(C)CCCNC(=O)c1ccccc1N | - | - | - | 125 µM
CCCN1c2ncccc2C(=O)N(C)c2ccc(-c3cn[nH]c3)nc21 | WT | - | nucleotide incorporation / radiometric | <1 µM
CC(C)OC(=O)CNC(=O)c1ccc(NC(=O)CSc2nnc(Br)n2-c2ccc(C3CC3)c3ccccc23)c(Cl)c1 | - | - | nucleotide incorporation / radiometric | <0.05 µM

Repeating the final 5 entries:

compound | strain or isolate | changes | method | value
O=C(OC1[C@H](OC(=O)c2cc(O)c(O)c(O)c2)CC(OC(=O)c2cc(O)c(O)c(O)c2)(C(=O)O)C[C@H]1OC(=O)c1cc(O)c(O)c(O)c1)c1cc(O)c(O)c(O)c1 | RF | - | - | 0.8 µM
O=C(CSc1nnc(Br)n1-c1cccc2c(OCC3CC3)cccc12)Nc1ccc(C(=O)O)cc1Cl | - | - | nucleotide incorporation / radiometric | >0.1 µM
C[Si](C)(CCCNC(=O)c1ccccc1N)O[Si](C)(C)CCCNC(=O)c1ccccc1N | - | - | - | 125 µM
CCCN1c2ncccc2C(=O)N(C)c2ccc(-c3cn[nH]c3)nc21 | WT | - | nucleotide incorporation / radiometric | <1 µM
CC(C)OC(=O)CNC(=O)c1ccc(NC(=O)CSc2nnc(Br)n2-c2ccc(C3CC3)c3ccccc23)c(Cl)c1 | - | - | nucleotide incorporation / radiometric | <0.05 µM